# Deep mutational scan of the Zika virus protease

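Libraries of single mutants were passaged as virus pools on Huh-7.5 cells. Deep sequencing gave the change in frequency of each mutant relative to wild type, averaged over three replicate libraries (two for positions 207-308). The study looked for pockets that tolerate few changes, as a guide for inhibitor design.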

The scanned region of Zika virus MR766 is shown below (positions 1-308): NS2B is 2-131, NS3 begins at position 132.
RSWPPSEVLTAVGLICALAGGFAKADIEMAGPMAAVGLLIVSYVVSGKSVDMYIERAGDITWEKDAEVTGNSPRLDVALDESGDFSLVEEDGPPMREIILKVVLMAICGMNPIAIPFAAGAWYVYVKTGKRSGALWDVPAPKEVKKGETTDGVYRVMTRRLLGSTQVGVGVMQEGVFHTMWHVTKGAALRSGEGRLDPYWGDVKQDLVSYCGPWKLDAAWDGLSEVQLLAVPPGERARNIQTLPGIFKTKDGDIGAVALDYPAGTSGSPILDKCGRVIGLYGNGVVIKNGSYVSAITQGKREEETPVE

The number is log2 of the effect relative to wild type; negative values mean reduced growth, higher values better tolerance. A change reads original residue, position, new residue. This list holds changes to threonine only. Values above 0 are not proof of better growth: six high scorers were tested one by one, five grew less well than wild type and one about as well. The authors count -1 or higher as tolerated. Position 1 is the last residue of NS2A. Positions 1-103, 104-206 and 207-308 were made and measured as separate libraries.

R1T gave -8.85. With S2T the assay gave -6.86. With W3T the assay gave -7.03. With P4T the assay gave -4.81. For P5T the result was -2.99. S6T gave 0.60. With E7T the assay gave -7.08.

For V8T the result was -1.41. L9T gave 0.04. For A11T the result was -4.66. V12T gave 0.69. G13T gave -7.17. For L14T the result was -0.67. With I15T the assay gave -0.98.

With C16T the assay gave -3.50. A17T gave -0.14. L18T read -2.64. With A19T the assay gave -4.44. G20T gave -2.49. G21T read -3.49. F22T read -0.75.

With A23T the assay gave 0.49. K24T read -3.62. A25T gave -1.48. For D26T the result was -2.13. With I27T the assay gave -2.17. E28T gave -1.87. M29T read -1.27.

A30T read 0.63. With G31T the assay gave -6.64. With P32T the assay gave -6.97. M33T gave -0.79. With A34T the assay gave -2.48. A35T read -2.05. V36T gave -0.72.

For G37T the result was -2.69. L38T read -2.60. L39T read -2.40. With I40T the assay gave 0.07. With V41T the assay gave -3.46. For S42T the result was -1.42. Y43T gave -6.69.

V44T gave -3.30. For V45T the result was -6.49. S46T read 2.15. With G47T the assay gave -5.44. K48T read -5.17. S49T read 0.60. For V50T the result was -0.34.

D51T gave -4.99. M52T read -4.29. Y53T gave -4.87. For I54T the result was -6.49. With E55T the assay gave -2.71. With R56T the assay gave -5.65. A57T read 0.50.

G58T gave -1.51.

The last 3 entries again:

| change | effect (log2) |
|---|---|
| R56T | -5.65 |
| A57T | 0.50 |
| G58T | -1.51 |

The measurements come from Ni et al. 2025 (doi:10.1038/s41467-025-63602-z).